We go through one compound from patent publication US10150742B2, “Substituted heterocyclic compounds for treating or preventing viral infections” (President and Fellows of Harvard College, priority 2013, dated 2018).

In this experiment the test system is 7-148-6-resistant DENV2 quasispecies. As to conditions: compared to DMSO-passaged control strain.

The structures appear in SMILES notation.

With `NC(=O)c1cccc(-c2cc(Nc3ccc(OC(F)(F)F)cc3)ncn2)c1` [GNF-2], the “sensitivity of 7-148-6-resistant DENV2 to compound” value is recorded as “still be sensitive”.
